Pooled drug test results. Numbers come from NIAID ChemDB, via PubChem.

Shared fields: tests in culture; species: Mycobacterium tuberculosis

MIC bound: limit read from a one-dose screen. An empty or dashed field is not shown. Conditions beyond the fields shown may differ between rows. ECn: concentration that inhibits the pathogen or its effect by n%. Inhibition is in % at the dose shown (toxicity tests: loss of growth or viability).

smiles	strain	changes	endpoint	cells	tested at	method	result
Cc1ccc2c(c1)[n+](=O)c(C(=O)N1CCN(c3ccccc3)CC1)c(C)n2[O-]	H37Rv		MIC				>6.25 µg/mL
O=C1C2=C(Nc3cc(Cl)ccc3N2)OC1c1ccc2c(c1)OCO2	H37Rv		MIC bound			BACTEC	>12.5 µg/mL
CCCCCCCCCCCCCCC[C@H](O)CCC[C@H]1CC=CC(=O)O1	H37Rv		MIC				31.95 µg/mL
CC(=O)OC1C2(CC3N4C(=O)C5(CO)SSC4(CC31O)C(=O)N5C)OC(C)C(C)(C)C2=O	H37Rv		MIC bound			resazurin	<6.25 µg/mL
O=C1C(=O)N(CCN2CCN(Cc3ccccc3)CC2)c2ccc(N3CCCCC3)cc21	H37Ra		MIC				≤20 µg/mL
O=c1[nH]c2ccc(Cl)cc2c(O)c1N=Nc1ccc(Cl)cc1	H37Rv		inhibition		6.25 µg/mL	resazurin	98%
CCCCCCCCCCN1C(=O)C(=O)c2cccc(-c3ccccc3)c21	H37Rv		MIC				≤20 µg/mL
Cc1ccc2nc(SCc3ccccn3)[nH]c2c1	My 331/88		MIC				250 µM
O=C(NNC(=S)Nc1cccc(C(F)(F)F)c1)c1ccncc1	H37Rv		MIC bound			resazurin	<6.25 µg/mL
NNC(=O)c1ccncc1	DRM167 16x6	DG167-resistant	MIC			resazurin	0.19 µM
c1cncc(CSc2nc3ccccc3[nH]2)c1	My 331/88		MIC				500 µM
CCOC(=O)c1nc(C2CCCC2)[nH]c1C1CCCC1	H37Rv		inhibition		6.25 µg/mL		91%
CCCCCCCCCCCCCCC[C@H](O)CCCC[C@H]1CC=CC(=O)O1	H37Rv		inhibition	VERO	128 µg/mL	fluorescence	94.7%
O=C1C2=C(Nc3cc([N+](=O)[O-])ccc3N2)OC1c1ccc2c(c1)OCO2	H37Rv		MIC bound			BACTEC	>12.5 µg/mL
CC(C)(C)c1ncc(C(=O)NN)[nH]1	H37Rv		MIC				>6.25 µg/mL
C[C@H](N)C(=O)N[C@@H]1[C@H]2C(=C(O)C[C@@H](O)[C@@H]2O)C(=O)O[C@]1(C)C(Cl)Cl	ETA-R		MIC				3.1 µg/mL
Cc1cc2c(cc1C)[n+](=O)c(C(=O)Nc1ccccc1)c(C)n2[O-]	H37Rv		MIC				>6.25 µg/mL
COc1cc(C2SC(C)C(=O)N2NC(=O)COc2ccc(NC(C)=O)cc2)cc(OC)c1OC	H37Rv		EC50				>12.5 µg/mL
NNC(=O)c1ccncc1	Isolate 13		MIC				32 µg/mL
CC(C)(C)c1nc(C(=O)NN)c(C(C)(C)C)[nH]1	H37Rv		MIC				>6.25 µg/mL
Cn1c(=O)c(N=Nc2ccccc2[N+](=O)[O-])c(O)c2ccccc21	H37Rv		MIC			resazurin	<6.25 µg/mL
Cc1c(C(=O)Nc2ccccc2)[n+](=O)c2cc(Cl)ccc2n1[O-]	H37Rv		MIC	VERO			1.56 µg/mL
Cc1ccc(/C=C2\CN(C)CC3=C2NC(=S)NC3c2ccc(C)cc2)cc1	H37Rv		inhibition		12.5 µg/mL	BACTEC	46%
O=C1C(=O)N(CCC2CCN(Cc3ccccc3)CC2)c2ccc(C3CCCCC3)cc21	H37Rv		MIC				≤20 µg/mL
COc1c(C(C)=O)cc(N)c2ncccc12	H37Rv		MIC				>6.25 µg/mL
NC(=S)c1cc(SCc2cccc3ccccc23)ccn1	My 331/88		MIC				2 µM
O=c1[nH]c2c([N+](=O)[O-])cccc2c(O)c1N=Nc1ccccc1[N+](=O)[O-]	H37Rv		MIC			resazurin	<6.25 µg/mL
CO[C@H]1/C=C/O[C@@]2(C)Oc3c(C)c(O)c4c(O)c(c(/C=N/N5CCN(C)CC5)c(O)c4c3C2=O)NC(=O)/C(C)=C\C=C\[C@H](C)[C@H](O)[C@@H](C)[C@@H](O)[C@@H](C)[C@H](OC(C)=O)[C@@H]1C	Isolate 12		MIC				<0.03 µg/mL
CC(=O)Nc1ccc(OCC(=O)NN2C(=O)C(C)SC2c2ccccc2O)cc1	H37Rv		inhibition		12.5 µg/mL		0%
COC(=O)CCc1cnc(C2C3CC4CC(C3)CC2C4)[nH]1	H37Rv		MIC				>6.25 µg/mL
CC1(C)CC[C@]2(C(=O)O)CC[C@]3(C)C(=CCC4[C@@]5(C)CC[C@H](OC(=O)/C=C/c6ccc(O)cc6)C(C)(C)C5CC[C@]43C)C2C1	H37Ra		MIC			resazurin	6.25 µg/mL
O=C(N/N=C/c1ccc([N+](=O)[O-])cc1)c1cc(-c2ccc(F)cc2F)ccc1O	H37Rv		inhibition		6.25 µg/mL	resazurin	23%
COc1ccc(N=Nc2c(O)c3cccc([N+](=O)[O-])c3[nH]c2=O)cc1	H37Rv		inhibition		6.25 µg/mL	resazurin	37%
CCCCCCCCC[C@@H]1CC=CC(=O)O1	H37Rv		inhibition		128 µg/mL	fluorescence	76.8%
NC[C@H]1O[C@H](O[C@H]2[C@H](O)[C@@H](O[C@H]3O[C@H](CO)[C@@H](O)[C@H](N)[C@H]3O)[C@H](N)C[C@@H]2N)[C@H](O)[C@@H](O)[C@@H]1O	H37Ra		MIC			resazurin	2.5 µg/mL
COC(=O)CNC(=O)c1cnc(C2C3CC4CC(C3)CC2C4)[nH]1	H37Rv		inhibition		6.25 µg/mL		21%
CC(=O)N1C(=O)CC(c2ccccc2)Sc2ccccc21	H37Rv		MIC bound			BACTEC	>12.5 µg/mL
CC(=O)Oc1ccc(/C=C/C(=O)O[C@H]2CC[C@@]3(C)C(CC[C@]4(C)C3CC=C3C5[C@@H](C)[C@H](C)CC[C@]5(C(=O)O)CC[C@]34C)C2(C)C)cc1	H37Ra		MIC			resazurin	25 µg/mL
CC(=O)c1cc(N)c2nc(C34CC5CC(CC(C5)C3)C4)ccc2c1	H37Rv		inhibition		6.25 µg/mL		0%
CO[C@H]1/C=C/O[C@@]2(C)Oc3c(C)c(O)c4c(O)c(c5c(c4c3C2=O)NC2(CCN(CC(C)C)CC2)N=5)=NC(=O)/C(C)=C\C=C\[C@H](C)[C@H](O)[C@@H](C)[C@@H](O)[C@@H](C)[C@H](OC(C)=O)[C@@H]1C	H37Rv		MIC				≤0.015 µg/mL
CC(=O)c1cc([N+](=O)[O-])c2nc(C(C)(C)C)ccc2c1	H37Rv		MIC				>6.25 µg/mL
O=C1Cc2cc(C3CCCCC3)ccc2N1CCC1CCCCC1	H37Ra		MIC				≤20 µg/mL
CCCCCCCCOc1c(C(C)=O)cc(N)c2nccc(CC)c12	Ethambutol-resistant		MIC				6.25 µg/mL
c1cncc(CSc2nc3ccccc3o2)c1	My 331/88		MIC				125 µM
CCCCCCCCCCCC1=NC(C)(CO)CO1	H37Rv		inhibition		12.5 µg/mL	BACTEC	-8%
CC(=O)Nc1ccc(OCC(=O)N/N=C/c2ccc(N(C)C)cc2)cc1	H37Rv		inhibition		12.5 µg/mL		20%
CC(=O)N1C(Nc2ccccc2)CCN1c1ccccc1	H37Rv		inhibition		6.25 µg/mL	resazurin	-52%
CCCCCCCCCCCCCCC[C@H](O)CCCC[C@H](O)C[C@H]1CC=CC(=O)O1	H37Rv		MIC				17.31 µg/mL
O=c1[nH]c2c(Cl)cccc2c(O)c1N=Nc1ccccc1	H37Rv		inhibition		6.25 µg/mL	resazurin	100%
CC(=O)OC[C@@H](OC(C)=O)[C@@H](OC(C)=O)[C@H](OC(C)=O)[C@@H](OC(C)=O)[C@@H](OC(C)=O)[C@H](OC(C)=O)C(N)=O	H37Rv		inhibition		6.25 µg/mL	resazurin	-5%
Cc1ccc(/C=N/NC(=O)c2cc(-c3ccc(F)cc3F)ccc2O)cc1	H37Rv		inhibition		6.25 µg/mL	resazurin	12%
c1ccc(CSc2nc3ccccc3s2)nc1	My 331/88		MIC				250 µM
COC(=O)CCc1cnc(C2CCCC2)[nH]1	H37Rv		MIC				>6.25 µg/mL
CCCCCCCCCCCCCCC[C@H](O)CC[C@H]1CC=CC(=O)O1	H37Rv		inhibition		128 µg/mL	fluorescence	79.1%
O=C(Nc1cccc2c(C3CCCCC3)cc(C3CCCCC3)nc12)C(F)(F)F	H37Rv		MIC				6.25 µg/mL
COc1ccc(OC)c2c(Cl)cc(N)nc12	H37Rv		MIC bound			BACTEC	>12.5 µg/mL
CC(=O)Nc1ccc(OCC(=O)NN2C(=O)C(C)SC2c2ccc(Cl)cc2Cl)cc1	H37Rv		inhibition		12.5 µg/mL		0%
CC1C(c2ccc3c(c2)OCO3)CC(Cl)CC12C=C1OCOC1=CC2=O	H37Rv		MIC bound			BACTEC	>12.5 µg/mL
Cc1c(C(=O)N2CCN(c3ccc([N+](=O)[O-])cc3)CC2)[n+](=O)c2ccccc2n1[O-]	H37Rv		inhibition		6.25 µg/mL		0%
O=C(N/N=C/c1ccc(Cl)cc1)c1cc(-c2ccc(F)cc2F)ccc1O	H37Rv		MIC			resazurin	>6.25 µg/mL
CC[C@@H](CO)NCCN[C@@H](CC)CO	Isolate 15		MIC				1 µg/mL
C=C(C)[C@@H]1CC[C@]2(C(=O)O)CC[C@]3(C)C(CCC4[C@@]5(C)CC[C@H](OC(=O)/C=C/c6ccc(OC(C)=O)cc6)C(C)(C)C5CC[C@]43C)C12	H37Ra		MIC			resazurin	12.5 µg/mL
CN(C)N=Nc1c(-c2ccc(Cl)cc2)n[nH]c1C(N)=O	H37Rv		inhibition		12.5 µg/mL	BACTEC	76%
Cc1c(C(=O)N2CCN(c3ccc([N+](=O)[O-])cc3)CC2)[n+](=O)c2cc(Cl)c(Cl)cc2n1[O-]	H37Rv		inhibition		6.25 µg/mL		0%
Cc1cccc(/C=N/Nc2cc(C)c3cccc(C)c3n2)n1	H37Rv		inhibition		12.5 µg/mL	BACTEC	87%
CCCCCCNC(=O)CCc1cnc(C2C3CC4CC(C3)CC2C4)[nH]1	H37Rv		inhibition		6.25 µg/mL		23%
CC(C)(C)c1cc(C(C)(C)C)c2cccc([N+](=O)[O-])c2n1	H37Rv		inhibition		6.25 µg/mL		23%
NC(=S)c1cc(SCc2cccnc2)ccn1	My 331/88		MIC				2 µM
COc1cc2c(cc1OC)-c1nc(N)sc1CC2	H37Rv		MIC bound			resazurin	>6.25 µg/mL
O=C(N/N=C/c1ccc(F)cc1)c1cc(-c2ccc(F)cc2F)ccc1O	H37Rv		inhibition		6.25 µg/mL	resazurin	19%
Cc1c2cnccc2c(C)c2c1c1ccccc1n2CCCCCCNCc1ccccc1	H37Rv		MIC			resazurin	0.39 µg/mL
O=c1[nH]c2ccccc2c(O)c1N=Nc1cccc(Cl)c1	H37Rv		inhibition		6.25 µg/mL	resazurin	41%
C=C(C)[C@@H]1CC[C@]2(C)CCC3(C)[C@H](CC[C@@H]4[C@@]5(C)CC[C@H](O)C(C)(C)[C@@H]5CC[C@]43C)[C@@H]12	H37Rv		inhibition		12.5 µg/mL	BACTEC	98%
CC(=O)Nc1ccc(OCC(=O)N/N=C/c2ccco2)cc1	H37Rv		EC50				>12.5 µg/mL
C=C(C)C1CC[C@]2(C(=O)O)CCC3(C)[C@H](CC[C@@H]4[C@@]5(C)CC[C@H](OC6OC(CO)C(O)C6OC6OC(C)C(O)C(O)C6O)[C@@](C)(CO)C5CC[C@]43C)[C@@H]12	H37Rv		inhibition		12.5 µg/mL	BACTEC	0%
CO[C@H]1/C=C/O[C@@]2(C)Oc3c(C)c(O)c4c(O)c(c(/C=N/N5CCN6CCCCC6C5)c(O)c4c3C2=O)NC(=O)/C(C)=C\C=C\[C@H](C)[C@H](O)[C@@H](C)[C@@H](O)[C@@H](C)[C@H](OC(C)=O)[C@@H]1C	H37Rv		MIC				0.03 µg/mL
C=C(C)[C@@H]1CC[C@]2(C(=O)O)CC[C@]3(C)C(CCC4[C@@]5(C)CC[C@H](OC(=O)/C=C/c6ccc(OC)cc6)C(C)(C)C5CC[C@]43C)C12	H37Ra		MIC			resazurin	>200 µg/mL
O=C(Nc1ccc(C2=NCCN2)cc1)c1cncc(C(=O)Nc2ccc(C3=NCCN3)cc2)c1	H37Rv		inhibition		128 µg/mL	BACTEC	94%
CCC(CO)C(=O)c1ccc(OCc2ccccc2)cc1O	H37Rv		MIC			fluorescence	25 µg/mL
CC(C)[C@@]1(NC(=O)[C@@H]2C=C3c4cccc5[nH]cc(c45)C[C@H]3N(C)C2)O[C@@]2(O)[C@@H]3CCCN3C(=O)[C@H](Cc3ccccc3)N2C1=O	H37Rv		MIC bound			BACTEC	>12.8 µg/mL
O=C(N/N=C/c1ccc([N+](=O)[O-])o1)c1cc(-c2ccc(F)cc2F)ccc1O	H37Rv		MIC			resazurin	>6.25 µg/mL

The last 10 rows once more:

smiles | strain | changes | endpoint | cells | tested at | method | result
O=c1[nH]c2ccccc2c(O)c1N=Nc1cccc(Cl)c1 | H37Rv |  | inhibition |  | 6.25 µg/mL | resazurin | 41%
C=C(C)[C@@H]1CC[C@]2(C)CCC3(C)[C@H](CC[C@@H]4[C@@]5(C)CC[C@H](O)C(C)(C)[C@@H]5CC[C@]43C)[C@@H]12 | H37Rv |  | inhibition |  | 12.5 µg/mL | BACTEC | 98%
CC(=O)Nc1ccc(OCC(=O)N/N=C/c2ccco2)cc1 | H37Rv |  | EC50 |  |  |  | >12.5 µg/mL
C=C(C)C1CC[C@]2(C(=O)O)CCC3(C)[C@H](CC[C@@H]4[C@@]5(C)CC[C@H](OC6OC(CO)C(O)C6OC6OC(C)C(O)C(O)C6O)[C@@](C)(CO)C5CC[C@]43C)[C@@H]12 | H37Rv |  | inhibition |  | 12.5 µg/mL | BACTEC | 0%
CO[C@H]1/C=C/O[C@@]2(C)Oc3c(C)c(O)c4c(O)c(c(/C=N/N5CCN6CCCCC6C5)c(O)c4c3C2=O)NC(=O)/C(C)=C\C=C\[C@H](C)[C@H](O)[C@@H](C)[C@@H](O)[C@@H](C)[C@H](OC(C)=O)[C@@H]1C | H37Rv |  | MIC |  |  |  | 0.03 µg/mL
C=C(C)[C@@H]1CC[C@]2(C(=O)O)CC[C@]3(C)C(CCC4[C@@]5(C)CC[C@H](OC(=O)/C=C/c6ccc(OC)cc6)C(C)(C)C5CC[C@]43C)C12 | H37Ra |  | MIC |  |  | resazurin | >200 µg/mL
O=C(Nc1ccc(C2=NCCN2)cc1)c1cncc(C(=O)Nc2ccc(C3=NCCN3)cc2)c1 | H37Rv |  | inhibition |  | 128 µg/mL | BACTEC | 94%
CCC(CO)C(=O)c1ccc(OCc2ccccc2)cc1O | H37Rv |  | MIC |  |  | fluorescence | 25 µg/mL
CC(C)[C@@]1(NC(=O)[C@@H]2C=C3c4cccc5[nH]cc(c45)C[C@H]3N(C)C2)O[C@@]2(O)[C@@H]3CCCN3C(=O)[C@H](Cc3ccccc3)N2C1=O | H37Rv |  | MIC bound |  |  | BACTEC | >12.8 µg/mL
O=C(N/N=C/c1ccc([N+](=O)[O-])o1)c1cc(-c2ccc(F)cc2F)ccc1O | H37Rv |  | MIC |  |  | resazurin | >6.25 µg/mL